Laboratory results: PubChem BioAssay AID1259414 (Drosophila RNAi Screening Center, 2018)
The screen tested about 24,000 reagents; this is a random part of those that have a named target and a result. In the full data, about 1,210 (5%) were called active. 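Inactive calls also include excluded dsRNAs with several or no targets, genes unexpressed in JW18, and well A1, regardless of score.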 A plus sign joins genes that one reagent is predicted to hit.

Assay: 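Fly genes that alter Wolbachia amount inside host cells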 (primary screen)
Cells: Drosophila JW18 cells infected with Wolbachia
Reagent: long dsRNA against Drosophila genes, 0.25 µg dsRNA per well of a 384-well plate
Timing: 5 days
Conditions: cells persistently infected with Wolbachia before knock-down; no added drug
Measured: 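Automated imaging of bacterial rRNA staining divided by host cell count, reported as plate-normalised robust z-score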
Reading the numbers: Wolbachia per cell robust z: higher = more Wolbachia per host cell than the plate typical
Active means: 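Hit when robust z is 1.5 or more, or -1.5 or less, in at least two of three replicates; excludes dsRNAs with several or no targets, genes not expressed in JW18 and well A1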

Gene | DRSC id | Wolbachia per cell robust z, rep 1 | Wolbachia per cell robust z, rep 2 | Wolbachia per cell robust z, rep 3 | call
CR31054 (pseudo) | DRSC22134 | 0.911 | 1.06 | 1.27 | inactive
CG9030 | DRSC20139 | 0.643 | 1.01 | -1.48 | inactive
CrzR (Corazonin receptor) | DRSC09781 | -2.57 | -0.781 | -0.657 | inactive
CrzR (Corazonin receptor) | DRSC09782 | -1.1 | -5.32 | -0.25 | inactive
nuf (nuclear fallout) | DRSC11379 | -0.213 | 1.44 | 0.0934 | inactive
nuf (nuclear fallout) | DRSC23276 | -3.35 | -0.869 | -0.642 | inactive
nuf (nuclear fallout) | DRSC26784 | 0.787 | -0.393 | -0.00494 | inactive
nuf (nuclear fallout) | DRSC29086 | -7.51 | -1.08 | 0.0454 | inactive
asRNA:CR30267 (antisense RNA:CR30267) | DRSC21628 | -0.152 | -1.4 | -0.247 | inactive
dec (defective chorion) | DRSC18759 | -0.0694 | 0.713 | -0.459 | inactive
dec (defective chorion) | DRSC21477 | -0.301 | -0.465 | -0.236 | inactive
dec (defective chorion) | DRSC27935 | -0.881 | -5.61 | -0.0605 | inactive
RpS17 (Ribosomal protein S17) | DRSC11271 | 1.61 | 0.84 | 0.559 | inactive
RpS17 (Ribosomal protein S17) | DRSC29519 | 2.06 | 1.98 | -6.09 | active
CG1537 | DRSC19662 | 1.08 | 0.0979 | -1.38 | inactive
CG11191 | DRSC23224 | 0.95 | 0.689 | 0.315 | inactive
CG11191 | DRSC28710 | -1.21 | 0.33 | -0.632 | inactive
CG15185 | DRSC12565 | -0.234 | -1.76 | -1.09 | inactive
fz (frizzled) | DRSC11348 | 1.76 | 1.18 | -0.871 | inactive
fz (frizzled) | DRSC39155 | 1.21 | -0.052 | -3.75 | inactive
MED6 (Mediator complex subunit 6) | DRSC16500 | -0.455 | -0.262 | 0.647 | inactive
CG3597 | DRSC00617 | 2.02 | 1 | 0.86 | inactive
CG3597 | DRSC24376 | -0.069 | -0.261 | 0.355 | inactive
alpha-Est6 (alpha-Esterase-6) | DRSC12618 | 0.309 | 0.257 | -0.983 | inactive
CG8750 | DRSC11037 | -1.71 | -1.05 | -0.27 | inactive
RasGAP1 (Ras GTPase activating protein 1) | DRSC11172 | -2.83 | -4.86 | -1.42 | active
CG33290 | DRSC11493 | -0.968 | 0.424 | -0.115 | inactive
CG33290 | DRSC27148 | 1.03 | 0.575 | 0.656 | inactive
CG31388 | DRSC15254 | -0.331 | -0.0539 | 0.642 | inactive
CG4702 | DRSC15626 | -4.39 | 0.00231 | 0.548 | inactive
CG30432 | DRSC04833 | 0.484 | -0.776 | -1.19 | inactive
KCNQ (KCNQ potassium channel) | DRSC06121 | 0.917 | -3.82 | 0.444 | inactive
KCNQ (KCNQ potassium channel) | DRSC06230 | -6.1 | -0.201 | -0.383 | inactive
KCNQ (KCNQ potassium channel) | DRSC25242 | 0.566 | -0.308 | -0.242 | inactive
PGRP-SB1 (Peptidoglycan recognition protein SB1) | DRSC11090 | -0.73 | -1.17 | 0.912 | inactive
CG13086 | DRSC02190 | 0.355 | 0.933 | 2.96 | inactive
CG13086 | DRSC27538 | 2.06 | 1.19 | -0.331 | inactive
fit (female-specific independent of transformer) | DRSC15280 | -0.641 | 0.723 | 0.54 | inactive
CG4502 | DRSC23237 | 0.422 | 0.143 | 0.0968 | inactive
ltl (larval translucida) | DRSC10206 | -0.65 | 0.295 | -1.67 | inactive
ltl (larval translucida) | DRSC10870 | -0.0684 | -2.32 | -0.764 | inactive
CG9919 | DRSC20219 | 0.0571 | -1.74 | -0.00658 | inactive
Srp54 (Splicing regulatory protein 54) | DRSC03442 | 0.666 | 0.204 | 2.21 | inactive
CG16739 | DRSC06621 | 0.162 | -1.49 | 0.151 | inactive
DnaJ-60 + CG42568 | DRSC04207 | -0.702 | 0.272 | 0.281 | inactive
DnaJ-60 + CG42568 | DRSC04611 | 0.17 | -0.339 | 0.401 | inactive
DnaJ-60 + CG42568 | DRSC27072 | -1.1 | -0.563 | 0.595 | inactive
CG30339 | DRSC05168 | -3.54 | -2.35 | -6.76 | active
CG10939 | DRSC06019 | -0.446 | -0.323 | -0.552 | inactive
CG10939 | DRSC21734 | 0.53 | 0.237 | 0.917 | inactive
CG5554 | DRSC04513 | 0.795 | 1.31 | 1.27 | inactive
CG5554 | DRSC25559 | 0.815 | 0.217 | 0.853 | inactive
CG17266 | DRSC04979 | 0.719 | 0.911 | 0.646 | inactive
CG17266 | DRSC22368 | 0.833 | -1.37 | -0.652 | inactive
CG17266 | DRSC24207 | -0.164 | -0.97 | 0.323 | inactive
MICU3 (Mitochondrial calcium uptake 3) | DRSC13381 | -0.0507 | 0.516 | 0.0363 | inactive
MICU3 (Mitochondrial calcium uptake 3) | DRSC15613 | -0.523 | -0.633 | -0.403 | inactive
CG13251 | DRSC11699 | 0.198 | 0.282 | 0.546 | inactive
CG13251 | DRSC27385 | 0.182 | 0.631 | 0.486 | inactive
raskol | DRSC19202 | 0.229 | 0.0298 | 0.857 | inactive
raskol | DRSC19731 | 1.32 | 1.04 | 0.765 | inactive
raskol | DRSC19964 | 0.949 | -1.71 | -0.129 | inactive
raskol | DRSC21788 | -0.187 | 0.301 | 0.671 | inactive
Slc25A46b | DRSC02888 | 0.0252 | 0.195 | -0.485 | inactive
Gapvd1 (GTPase activating protein and VPS9 domains 1) | DRSC19752 | 0.881 | -1.67 | 0.584 | inactive
Gapvd1 (GTPase activating protein and VPS9 domains 1) | DRSC24025 | -8.33 | -0.632 | -9.68 | active
CG44247 + veg (retired record) | DRSC07714 | -1.95 | -0.274 | 0.495 | inactive
Sk2 (Sphingosine kinase 2) | DRSC08556 | 0.342 | -0.0404 | 1.16 | inactive
